Experimental findings from PMC8593223, “Rapid Identification of Secondary Structure and Binding Site Residues in an Intrinsically Disordered Protein Segment” (2021) are described below.

For the experiment, the target named is partner chain of the complex shown. Description: yeast surface display titration, flow cytometry (FACS). Conditions: MazF6 about 55 nM (read from x axis); highest concentration shown for L41R; parent: 9.9e+03. (Flow cytometry measures light scatter and fluorescence of single cells or particles in a stream.)

B1: unnamed (protein)
parent chain 1: not shown
parent chain 2: MKTAISLPDETFDRVSRRASELGMSRSEFFTKAAQRYLHELDAQLLTGQIDRALESIHGTDEAEALAVANAYRVLETMDDEW
On to B1, for which the response is 1600 MFI.
